From article PMC11370232, “Repurposing of a library for high-content screening of inhibitors against Echinococcus granulosus” (Parasites & Vectors, 2024)
Read-outs that look alike come from different tables or passages of the source.

Test system: E. granulosus PSCs

Q: Which results are given for COC(=O)C(N)Cc1ccc(N(CCCl)CCCl)cc1 (stereo not shown)?
A: mortality (read-out: Anti-echinococcus activity % of death, 0.5uM, compound at 0.5uM): 0%; mortality (read-out: Anti-echinococcus activity % of death, 2uM, compound at 2uM): 0%; mortality (read-out: Anti-echinococcus activity % of death, 10uM, compound at 10uM): 100%; mortality (read-out: Anti-echinococcus activity % of death, 50uM, compound at 50uM): 100%
